Anti-infective test results gathered from many reports (values: NIAID ChemDB through PubChem).

All rows: tests in culture

ECn is the concentration giving n% inhibition of infection, replication or growth. Neighbouring rows are from separate reports. An empty or dashed field is not shown.

compound | agent | strain or isolate | cells | endpoint | result
COc1c(C)c2c(c(O)c1C/C=C(\C)CCC(=O)O)C(=O)OC2 | Camelpox virus |  | VERO 76 | EC50 | 1.3 µM
NC(=O)c1csc([C@@H]2O[C@H](CO)[C@@H](O)[C@H]2O)n1 | Yellow fever virus | Asibi | LLC-MK2 | EC50 | 0.08 µg/mL
O=c1cnn([C@@H]2O[C@H](CO)[C@@H](O)[C@H]2O)c(=O)[nH]1 | Japanese encephalitis virus | Nakayama | VERO | EC90 | 0.8 µg/mL
Nc1ccn(C[C@H]2COP(=O)(O)CO2)c(=O)n1 | Vaccinia virus | WR | HFF | EC50 | 58.8 µM
NC12CC3CC(CC(C3)C1)C2 | Influenza A virus | H2N2 JAPAN/305/57 | MDCK | EC50 | 0.062 µg/mL
Cc1cn([C@H]2C[C@H](N=[N+]=[N-])[C@@H](CO)O2)c(=O)[nH]c1=O | Cowpox virus |  | HFF | EC50 | >374 µM
NC(=O)c1c[se]c([C@@H]2O[C@H](CO)[C@@H](O)[C@H]2O)n1 | Japanese encephalitis virus | Nakayama | VERO | EC50 | 3 µg/mL
CCCCCCCCCCCCCCCCOCCCOP(=O)(O)CO[C@H](CO)Cn1ccc(N)nc1=O | Vaccinia virus | Copenhagen | HFF | EC50 | 0.8 µM
Nc1ccn(C[C@@H](CO)OCP(=O)(O)O)c(=O)n1 | Monkeypox virus | Zaire strain wild-type | VERO 76 | EC50 | 27 µM
Nc1ccn(C[C@@H](CO)OCP(=O)(O)O)c(=O)n1 | Variola virus |  | VERO | EC50 | 6 µM
Nc1ccn(C[C@@H](CO)OCP(=O)(O)O)c(=O)n1 | Vaccinia virus | Elstree | HFF | EC50 | 41.6 µM
NC(=O)c1ncn([C@@H]2O[C@H](CO)[C@@H](O)[C@H]2O)n1 | Camelpox virus | Somalia wild type | VERO 76 | EC50 | 290 µM
Nc1nc2c(ncn2COCCO)c(=O)[nH]1 | Variola virus |  | BSC | EC50 | 776 µM
Nc1ccn(C[C@H]2COP(=O)(O)CO2)c(=O)n1 | Monkeypox virus |  | 3T3 | EC50 | 19 µM
Nc1ccn([C@H]2CC[C@@H](CO)O2)c(=O)n1 | Cowpox virus |  | VERO | EC50 | >474 µM
Nc1ncnc2c1ncn2C[C@@H](CO)OCP(=O)(O)O | Camelpox virus | Somalia wild type | VERO 76 | EC50 | 0.5 µM

For reference, 2 entries again:

| compound | agent | strain or isolate | cells | endpoint | result |
|---|---|---|---|---|---|
| NC(=O)c1ncn([C@@H]2O[C@H](CO)[C@@H](O)[C@H]2O)n1 | Camelpox virus | Somalia wild type | VERO 76 | EC50 | 290 µM |
| NC12CC3CC(CC(C3)C1)C2 | Influenza A virus | H2N2 JAPAN/305/57 | MDCK | EC50 | 0.062 µg/mL |